Compound potency records, mixed from different reports. Data source: NIAID ChemDB in PubChem.

Shared fields: growth or infection tests; species: Mycobacterium kansasii

Rows are shuffled and stem from different studies. MIC50, MIC90 and the like: level of inhibition, or share of isolates inhibited. An empty or dashed field is not shown.

structure	strain or isolate	method	read-out	conditions	value
O=C(Oc1cc(Cl)ccc1C(=O)Nc1cccc(Cl)c1)c1cnccn1	235/80	-	MIC	7 d	2 µM
S=c1oc2ccc(Br)cc2c(=S)n1-c1ccc(Cl)c(Cl)c1	My 235/80	-	MIC	14 d	4 µM
O=C(Oc1cc(Cl)ccc1C(=O)Nc1ccc(Br)cc1)c1cnccn1	235/80	-	MIC	7 d	4 µM
O=C(NNC(=O)c1ccncc1)Nc1ccc(F)c(Cl)c1	My 235/80	broth dilution	MIC100	21 d	>125 µM
O=c1oc2ccc(Br)cc2c(=S)n1-c1ccc(C(F)(F)F)cc1	My 235/80	-	MIC	21 d	16 µM
O=C(Nc1cccc(F)c1)c1cc(Cl)ccc1OS(=O)(=O)c1ccccc1	235/80	-	MIC	14 d	32 µM
S=c1oc2ccc(Br)cc2c(=S)n1-c1ccc(Cl)cc1	My 235/80	-	MIC	14 d	4 µM
O=C(Nc1cccc(C(F)(F)F)c1)c1ccc(Cl)cc1OS(=O)(=O)c1ccccc1	6509/96	-	MIC	14 d	125 µM
NNC(=O)c1ccncc1	6509/96	-	MIC	14 d	4 µM
O=C(Nc1ccc(C(F)(F)F)cc1)c1cc(Cl)ccc1OS(=O)(=O)c1ccccc1	235/80	-	MIC	7 d	125 µM
Cc1ccc2oc(=S)n(-c3ccc(Cl)c(Cl)c3)c(=S)c2c1	My 235/80	-	MIC	14 d	8 µM
Cc1ccc(NC(=O)NNC(=O)c2ccncc2)cc1	My 235/80	broth dilution	MIC100	21 d	>125 µM
Nc1ccc(C(=O)O)c(O)c1	235/80	-	MIC	7 d	125 µM
COc1ccc(Nc2nnc(-c3ccncc3)o2)cc1	My 235/80	broth dilution	MIC100	21 d	>125 µM
O=C(Oc1cc(Cl)ccc1C(=O)Nc1cccc(Br)c1)c1cnccn1	6509/96	-	MIC	21 d	4 µM
O=c1oc2ccc(F)cc2c(=S)n1-c1ccc(F)cc1	6509/96	-	MIC	21 d	8 µM
CCCCCCCc1ccc(NC(=O)NNC(=O)c2ccncc2)cc1	My 6509/96	broth dilution	MIC100	14 d	62.5 µM
O=C(Nc1cccc(Br)c1)c1ccc(Cl)cc1OS(=O)(=O)c1ccccc1	235/80	-	MIC	7 d	16 µM
O=C(NNC(=O)c1ccncc1)Nc1ccc(Br)cc1F	My 6509/96	broth dilution	MIC100	21 d	>125 µM
O=C(Nc1cccc(Cl)c1)c1ccc(Cl)cc1OS(=O)(=O)c1ccccc1	235/80	-	MIC	7 d	16 µM
COc1ccc2oc(=O)n(-c3ccc(Cl)c(Cl)c3)c(=S)c2c1	6509/96	-	MIC	14 d	62.5 µM
O=C(NNC(=O)c1ccncc1)Nc1cc(Cl)cc(Cl)c1	My 6509/96	broth dilution	MIC100	14 d	125 µM
O=c1oc2ccc(Br)cc2c(=S)n1-c1cccc(Cl)c1	6509/96	-	MIC	14 d	2 µM
NC(=O)c1cnccn1	235/80	-	MIC	21 d	>1000 µM
Cc1ccc2oc(=O)n(-c3ccc(Br)cc3)c(=S)c2c1	My 235/80	-	MIC	14 d	2 µM
O=C(NNC(=O)c1ccncc1)Nc1ccc(Br)cc1Br	My 235/80	broth dilution	MIC100	7 d	>125 µM